Series [1] relates to Burkholderia pseudomallei K96243. Set-up: species or system BALB/c mice. The settings on record: mouse, in vivo.
The conditions of series [2]: cited from earlier work.
The conditions of series [3]: mouse, in vivo.

One may read the Cmax as the maximum level reached in the sampled fluid or tissue. The Tmax is the time from dosing to the highest level. On to coumermycin, for which the toxicity entry in series [1] is on record as “no toxicity was observed”. Further, the “membrane permeability compared with novobiocin” value in series [2] is “improved membrane permeability”. Besides, in series [3], the Cmax amounted to 103 µM and the time to peak (Tmax) is given as 2 h.

These data come from PMC7385433 (International Journal of Antimicrobial Agents, 2020).
